Results as given in ChEMBL document CHEMBL4196153, “Structure-Based Optimization of Nonquaternary Reactivators of Acetylcholinesterase Inhibited by Organophosphorus Nerve Agents” (2018).

Sequences of proteins named here, by UniProt entry; tags and fusion partners are left off. A change or cut given only in a name is not applied to a line headed by its entry.
UniProt P22303: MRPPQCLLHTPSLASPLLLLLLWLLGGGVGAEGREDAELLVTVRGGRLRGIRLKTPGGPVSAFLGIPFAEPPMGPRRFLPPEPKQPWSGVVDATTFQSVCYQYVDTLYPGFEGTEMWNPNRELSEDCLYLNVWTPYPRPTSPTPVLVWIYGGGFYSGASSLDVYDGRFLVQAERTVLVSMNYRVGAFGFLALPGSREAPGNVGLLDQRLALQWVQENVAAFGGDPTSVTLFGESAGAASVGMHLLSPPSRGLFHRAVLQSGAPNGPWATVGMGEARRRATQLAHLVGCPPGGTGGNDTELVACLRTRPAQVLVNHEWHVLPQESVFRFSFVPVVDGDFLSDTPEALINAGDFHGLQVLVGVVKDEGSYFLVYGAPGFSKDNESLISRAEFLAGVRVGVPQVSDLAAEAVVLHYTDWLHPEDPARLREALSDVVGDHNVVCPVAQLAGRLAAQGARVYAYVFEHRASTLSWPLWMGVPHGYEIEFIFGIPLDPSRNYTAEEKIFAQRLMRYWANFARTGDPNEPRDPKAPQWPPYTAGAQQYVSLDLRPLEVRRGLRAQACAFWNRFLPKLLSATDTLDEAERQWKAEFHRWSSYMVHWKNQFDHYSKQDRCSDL

Target: Acetylcholinesterase (Homo sapiens) (UniProt P22303)
Experiment: Reactivation of VX-inhibited human recombinant AChE assessed as reactivation rate constant incubated for 1 to 10 mins by spectrophotometry based Ellman's assay

Question: With `O/N=C/c1ccccn1` as the compound, how does the K read?
Answer: The K was 0.1 min⁻¹.

Question: `O/N=C/c1nc(CCCCNc2c3c(nc4ccc(Cl)cc24)CCCC3)ccc1O` was tested. Which K did it give?
Answer: Its K is 0.29 min⁻¹.
